Pooled drug test results. Numbers come from NIAID ChemDB, via PubChem.

Shared fields: whole-cell or culture tests; species: Candida albicans; measure: zone

Blank or dashed fields: not listed here. Zone: diameter of growth inhibition. Neighbouring rows are from separate reports.

| smiles | tested at | strain | method | value |
|---|---|---|---|---|
| CCC(C)CCCCCCCCCCC(=O)N[C@H]1C[C@@H](O)[C@@H](OC)NC(=O)C2[C@@H](O)[C@@H](C)CN2C(=O)C(CO)NC(=O)C([C@H](O)C(OC)c2ccc(O)cc2)NC(=O)NC(=O)[C@@H]2C[C@@H](O)CN2C(=O)[C@H]([C@@H](C)O)NC1=O | 2 mg/mL | IV | agar | 18 mm |
| N#Cc1ccc(Nc2nc(Oc3cccc4cccnc34)nc(N3CCN(c4ccccn4)CC3)n2)cc1C(F)(F)F | 100 µg/disc | MTCC 183 | agar diffusion / agar | 28 mm |
| COc1ccc(C2SCC(=O)N2NC(=O)Cn2c(=O)c(C)nc3ccccc32)cc1OC | 100 µg/mL |  |  | 18 mm |
| O=[N+]([O-])c1ccc(/C=N/n2c(C34CC5CC(CC(C5)C3)C4)n[nH]c2=S)cc1 | 200 µg/disc | IFO 3007 | agar diffusion | <10 mm |
| Cc1ccc(-c2nnc(CN3CCC(n4nc5ccccc5n4)CC3)o2)cc1Br | 1200 µg/mL |  |  | 17.84 mm |
| CCOC(=O)C1CCN(Cn2nc(C34CC5CC(CC(C5)C3)C4)n(/N=C/c3ccc(C)cc3)c2=S)CC1 | 200 µg/disc | IFO 3007 | agar diffusion | <10 mm |
| N#Cc1ccc(Nc2nc(Oc3cccc4cccnc34)nc(N3CCCCC3)n2)cc1C(F)(F)F | 100 µg/disc | MTCC 183 | agar diffusion / agar | 23 mm |
| Cc1ccc(S(=O)(=O)CNc2oc3[nH]c(=O)[nH]c(=O)c3c2-c2ccc(O)cc2)cc1 | 50 µg/mL |  | agar diffusion / agar | 0 mm |
| Cc1nc2ccccc2n(CC(=O)NN2C(=O)CSC2c2ccccc2F)c1=O | 50 µg/mL |  |  | 8 mm |
| Cc1ccc(S(=O)(=O)CNc2oc3[nH]c(=O)[nH]c(=O)c3c2-c2ccc(Cl)cc2)cc1 | 50 µg/mL |  | agar diffusion / agar | 0 mm |
| COc1ccc(C2SCC(=O)N2NC(=O)Cn2c(=O)c(C)nc3ccccc32)cc1 | 50 µg/mL |  |  | 11 mm |
| Cc1ccc(NC(=O)NCCn2c(-c3ccccc3)nc3ccc([N+](=O)[O-])cc3c2=O)cc1 | 100 µg/mL | ATCC 66027 | broth dilution / agar diffusion | 14 mm |
| Brc1ccccc1-c1nnc(CN2CCC(n3nc4ccccc4n3)CC2)o1 | 900 µg/mL |  |  | 7.86 mm |
| CC1(C)C/C(=N\NC(=O)c2ccccc2)c2cc(/C=N/Nc3nnc4c(n3)Nc3ccccc3N4)[nH]c2C1 | 1000 µg/mL | ATCC 2091 |  | 22 mm |
| N#Cc1ccc(Nc2nc(Oc3cccc4cccnc34)nc(N3CCN(c4ccccc4)CC3)n2)cc1C(F)(F)F | 100 µg/disc | MTCC 183 | agar diffusion / agar | 22 mm |
| Cc1nc2ccccc2n(CC(=O)NN2C(=O)CSC2c2ccccc2O)c1=O | 50 µg/mL |  |  | 9 mm |
| S=c1[nH]nc(C23CC4CC(CC(C4)C2)C3)n1/N=C/c1ccccc1Cl | 200 µg/disc | IFO 3007 | agar diffusion | <10 mm |
| C/C=C/C1=CC2=CC(=O)[C@](C)(OC(=O)c3c(OC)cc(O)c(O)c3C)C(=O)C2=CO1 | 25 µg/disc | ATCC 64548 | agar diffusion | 0 mm |
| Cc1c(Br)cccc1-c1nnc(CN2CCC(n3nc4ccccc4n3)CC2)o1 | 900 µg/mL |  |  | 9.36 mm |
| CN(C)/C=C(\C#N)C(=O)Nc1scc(-c2ccccc2)c1C#N | 1000 µg/mL |  | agar diffusion / agar | 4 mm |
| FC(F)(F)c1cccc(N2CCN(Cn3nc(C45CC6CC(CC(C6)C4)C5)n(/N=C/c4c(Cl)cccc4Cl)c3=S)CC2)c1 | 200 µg/disc | IFO 3007 | agar diffusion | <10 mm |
| Cc1ccc(S(=O)(=O)CNc2oc3[nH]c(=O)[nH]c(=O)c3c2-c2ccsc2C=O)cc1 | 100 µg/mL |  | agar diffusion / agar | 3 mm |
| COc1ccc(-c2nc(S(C)(=O)=O)nc(N)c2C#N)cc1 | 50 µg/mL | MTCC 227 | agar diffusion | 18 mm |
| COc1ccc(/C=N/n2c(C34CC5CC(CC(C5)C3)C4)n[nH]c2=S)cc1 | 200 µg/disc | IFO 3007 | agar diffusion | <10 mm |
| CC1=NN(c2nnc3c(n2)Nc2ccccc2N3)C(=O)C1 | 1000 µg/mL | ATCC 2091 |  | 24 mm |
| Fc1cccc(-c2nnc(CN3CCC(n4nc5ccccc5n4)CC3)o2)c1F | 300 µg/mL |  |  | 3.33 mm |
| O=C(NCCn1c(-c2ccccc2)nc2ccc([N+](=O)[O-])cc2c1=O)Nc1ccc(C(F)(F)F)cc1 | 100 µg/mL | ATCC 66027 | broth dilution / agar diffusion | 15 mm |
| CC1=NN(c2nnc3c(n2)Nc2ccccc2C3)C(=O)C1=C(C)C | 1000 µg/mL | ATCC 2091 |  | 24 mm |
| COc1ccc(C2SCC(=O)N2NC(=O)Cn2c(=O)c(C)nc3ccccc32)cc1O | 50 µg/mL |  |  | 11 mm |
| N#Cc1ccc(Nc2nc(Oc3ccnc4ccccc34)nc(N3CCN(Cc4ccccc4)CC3)n2)cc1C(F)(F)F | 100 µg/mL | MTCC 183 | agar | <10 mm |
| NS(=O)(=O)c1ccc(C2C=C(c3ccc(Cl)cc3)C(Br)C2c2ccccc2)cc1 | 1000 µg/mL | ATCC 2091 |  | >40 mm |
| C=CC(C)(C)c1cc(C2CC(=O)c3c(cc(O)c(CC=C(C)C)c3O)O2)c(O)cc1O | 2 mg/mL | hemoculture isolate 15564 | agar diffusion / agar | 16 mm |
| Cc1cc(O)c(C(C)C)cc1Cl | 100 µg/mL | CN | agar diffusion | 10 mm |
| C#C/C(=C\N(C)C)C(=O)Nc1scc(-c2ccc(Cl)cc2)c1C#N | 1000 µg/mL |  | agar diffusion / agar | 0 mm |
| CS(=O)(=O)c1nc(N)c(C#N)c(-c2ccc(O)cc2)n1 | 100 µg/mL | MTCC 227 | agar diffusion | 19 mm |
| CCOC(=O)C1CCN(Cn2nc(C34CC5CC(CC(C5)C3)C4)n(/N=C/c3c(F)cccc3F)c2=S)CC1 | 200 µg/disc | IFO 3007 | agar diffusion | 14 mm |
| Cc1cccc(C2=NC(=O)C(C(=O)Nc3scc(-c4ccccc4)c3C#N)C=C2)n1 | 1000 µg/mL |  | agar diffusion / agar | 0 mm |
| CC1(C)CC(=O)c2cc(C3=CC(c4ccc(Br)cc4)=CC3c3nnc4c(n3)Nc3ccccc3C4)[nH]c2C1 | 1000 µg/mL | ATCC 2091 |  | 21 mm |
| CCC(C)CCCCCCCCCCC(=O)N[C@H]1C[C@@H](O)[C@@H](OC)NC(=O)C2[C@@H](O)[C@@H](C)CN2C(=O)C(CO)NC(=O)C([C@H](O)C(O)c2ccc(O)cc2)NC(=O)NC(=O)[C@@H]2C[C@@H](O)CN2C(=O)[C@H]([C@@H](C)O)NC1=O | 5 mg/mL | IV | agar | 27 mm |
| O=C(NCCn1c(-c2ccccc2)nc2ccc([N+](=O)[O-])cc2c1=O)Nc1ccccc1Cl | 100 µg/mL | ATCC 66027 | broth dilution / agar diffusion | 16 mm |
| Fc1ccccc1/C=N/n1c(C23CC4CC(CC(C4)C2)C3)n[nH]c1=S | 200 µg/disc | IFO 3007 | agar diffusion | <10 mm |
| CC1(C)CC(=O)c2cc(/C=C/C(=O)c3ccc(Br)cc3)[nH]c2C1 | 1000 µg/mL | ATCC 2091 |  | 21 mm |
| CC(=O)N1CCN(c2nc(Nc3ccc(C#N)c(C(F)(F)F)c3)nc(Oc3cccc4cccnc34)n2)CC1 | 100 µg/disc | MTCC 183 | agar diffusion / agar | 19 mm |
| NS(=O)(=O)c1ccc(C2C=C(c3ccc(Br)cc3)CC2c2ccccc2)cc1 | 1000 µg/mL | ATCC 2091 |  | 23 mm |
| CCOC(=O)C1CCN(Cn2nc(C34CC5CC(CC(C5)C3)C4)n(/N=C/c3cc(OC)c(OC)cc3[N+](=O)[O-])c2=S)CC1 | 200 µg/disc | IFO 3007 | agar diffusion | <10 mm |
| CS(=O)(=O)c1nc(N)c(C#N)c(-c2ccc(Cl)cc2)n1 | 100 µg/mL | MTCC 227 | agar diffusion | 19 mm |
| CCC(C)CCCCCCCCCCC(=O)N[C@H]1C[C@@H](O)[C@@H](N=[N+]=[N-])NC(=O)C2[C@@H](O)[C@@H](C)CN2C(=O)C(CO)NC(=O)C([C@H](O)C(N=[N+]=[N-])c2ccc(O)cc2)NC(=O)NC(=O)[C@@H]2C[C@@H](O)CN2C(=O)[C@H]([C@@H](C)O)NC1=O | 5 mg/mL | IV | agar | 25 mm |
| N#CCC(=O)Nc1scc(-c2ccc(Cl)cc2)c1C#N | 1000 µg/mL |  | agar diffusion / agar | 0 mm |
| Clc1ccccc1C(c1ccccc1)(c1ccccc1)n1ccnc1 | 25 µg/mL |  | agar | 35 mm |
| CS(=O)(=O)c1nc(N)c(C#N)c(/C=C\c2ccccc2)n1 | 50 µg/mL | MTCC 227 | agar diffusion | 18 mm |

The last 5 rows once more:

smiles	tested at	strain	method	value
CS(=O)(=O)c1nc(N)c(C#N)c(-c2ccc(Cl)cc2)n1	100 µg/mL	MTCC 227	agar diffusion	19 mm
CCC(C)CCCCCCCCCCC(=O)N[C@H]1C[C@@H](O)[C@@H](N=[N+]=[N-])NC(=O)C2[C@@H](O)[C@@H](C)CN2C(=O)C(CO)NC(=O)C([C@H](O)C(N=[N+]=[N-])c2ccc(O)cc2)NC(=O)NC(=O)[C@@H]2C[C@@H](O)CN2C(=O)[C@H]([C@@H](C)O)NC1=O	5 mg/mL	IV	agar	25 mm
N#CCC(=O)Nc1scc(-c2ccc(Cl)cc2)c1C#N	1000 µg/mL		agar diffusion / agar	0 mm
Clc1ccccc1C(c1ccccc1)(c1ccccc1)n1ccnc1	25 µg/mL		agar	35 mm
CS(=O)(=O)c1nc(N)c(C#N)c(/C=C\c2ccccc2)n1	50 µg/mL	MTCC 227	agar diffusion	18 mm